Reference: patent US12691114B2, “Compositions for inhibition of herpesviruses” (The Medical College of Wisconsin, Inc., priority 2020, dated 2026)

Assays:
Format in all cases: cell-based, human cytomegalovirus
HCMV TB40 [1] = assay: Drug combination with letermovir, plaque assay TB40, Bliss model; conditions: >1 synergy, <1 antagonism, =1 additive
Description: (§1) Drug combination and analysis: These experiments were performed as previously reported^40. The combination of GCV and each compound was tested using the pp28-luciferase. Briefly, 2×10^6 HFFs/plate were seeded in 96-well plates and infected with the pp28-luciferase Towne HCMV strain (MOI=1). First, a dose response curve was generated for each drug individually to determine its EC50. Then, drugs were combined at twice their EC50, diluted in DMEM with 4% FBS, followed by serial dilution and added together after infection. Luciferase activity of the combination and each drug individually was quantified at 72 hpi. The combination of letermovir and each of the new compounds was tested by the plaque assay using TB40. The same principle applied in this assay for the drug combination effect, and plaques were counted at 8 dpi. The Bliss model was used to calculate the effect of each drug combination on pp28-luciferase activity and plaque reduction. In this model, drug combination represents the product of two probabilistically independent events as described in the following equation^41.
(§2) [formula] Where D is the drug concentration, m is the slope, and EC50 is the effective concentration resulting in 50% virus inhibition. The combined effect of two inhibitors (Fu, fractional unaffected) is computed as the product of individual effects of the two inhibitors, Fu1 and Fu2. If the ratio of observed fold inhibition divided by the expected fold inhibition is greater than 1, the compounds are synergistic. If the ratio is less than 1, the combination is considered antagonistic, and if it equals to 1 the combination is additive.
Pattern of drug combination with GCV and letermovir: The effect of each compound alone or in combination with GCV or letermovir was tested in HCMV-infected HFFs. […] A ratio of observed fold inhibition divided by the expected fold inhibition of >1 was considered drug synergy, <1 as drug antagonism, and =1 as additive. For letermovir and its combination with each of the five compounds the EC50 was determined based on plaque assay. The combination of GCV and 2955 was also tested by plaque assay. All other combinations and Bliss coefficients were measured by pp28- luciferase.

HCMV TB40 [2] = assay: Plaque reduction assay, HCMV TB40 in HFFs; conditions: slope parameter (analogous to the Hill coefficient) of the dose response
Description: Plaque reduction assay: HFFs were seeded into 12-well plates (2×10^5 cells/well) and infected with HCMV TB40 at approximately 100 plaques/well. After 90 min, media were aspirated, and DMEM containing 0.5% carboxymethyl-cellulose (CMC), 4% fetal bovine serum (FBS), and drugs were added into duplicate wells. Following incubation at 37° C. for 10-12 days the overlay was removed, and plaques were counted after crystal violet staining. For HSV1 and HSV2 replication in Vero cells, the adsorption time was 60 min and plaques were counted after 36 h. Plaque assays in MEFs were completed after 3 days.
Viral protein expression was measured by Western blot.

[3] = tested on: pp28-luciferase Towne HCMV; assay: Drug combination with GCV, pp28-luciferase Towne, Bliss model; conditions: >1 synergy, <1 antagonism, =1 additive
Description: as §1, §2
Pattern of drug combination with GCV and letermovir: The effect of each compound alone or in combination with GCV or letermovir was tested in HCMV-infected HFFs. […] For letermovir and its combination with each of the five compounds the EC50 was determined based on plaque assay. […] All other combinations and Bliss coefficients were measured by pp28- luciferase.

| SMILES | Bliss Coefficient (HCMV TB40 [1]) | Slope (HCMV TB40 [2]) | Bliss Coefficient [3] |
| --- | --- | --- | --- |
| CC(C)NC(=O)C1CCN(C(=O)c2cc3sccc3n2Cc2ccc(Cl)cc2)CC1 [NCGC2955, 1-(4-(4-chlorobenzyl)-4H-thieno[3,2-b]pyrrole-5-carbonyl)-N-isopropylpiperidine-4-carboxamide] | 1.09 | 0.80 ± 0.1 |  |
| CCN1CCN(CCCNC(=O)c2ccc3c(c2)sc2nc(-c4ccc(OC)cc4)cn23)CC1 [NFU1827, N-[3-(4-ethylpiperazin-1-yl)propyl]-4-(4-methoxyphenyl)-7-thia-2,5-diazatricyclo [6.4.0.02,6] dodeca-1(8),3,5,9,11-pentaene-10-carboxamide] | 1.2 | 1.27 ± 0.1 | 1.17 |
| CCc1ccc(NC(=O)[C@H](Cc2c[nH]c3ccccc23)NC(=O)[C@@H]2Cc3ccccc3CN2)cc1 [MLS8554] | 0.97 | 1.02 ± 0.1 | 1.08 |
| Nc1c(S(=O)(=O)c2cccs2)c2nc3ccccc3nc2n1Cc1ccccc1 [MLS8091] | 1.3 | 1.34 ± 0.1 | 1.3 |
